Results deposited as PubChem BioAssay AID624099 (ICCB-Longwood, 2012)
The deposit covers about 21,000 reagents; shown is an unselected part. Over the whole deposit, 497 (2.4%) are marked active. 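Higher z means weaker E2 silencing; only reporter increases were scored, and knock-downs that hurt cell survival may mask genuine repressor factors.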

Test: 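Knock-downs relieving repression by E2 of an HPV18 LCR luciferase reporter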 (primary screen)
Cells: human C33A cervical carcinoma cells (HPV-negative) stably expressing BPV1 E2 and an HPV18 LCR luciferase reporter
Reagent: siRNA pool against human genes, 40 nM
Timing: 72 h
Measurement: 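Per-well luciferase luminescence, z-scored on each plate against the plate mean and SD with control wells left out, then averaged across three replicate plates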
Reading the numbers: mean z-score and z-score: higher = stronger reporter signal, weaker E2 silencing
Hit rule: 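Mean z ≥ 2 together with z ≥ 2 in two or more of the three replicates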

| gene knocked down | mean z-score | z-score, replicate A | z-score, replicate B | z-score, replicate C | outcome |
| --- | --- | --- | --- | --- | --- |
| LRRC17 | -0.04 | 0.13 | -0.13 | -0.13 | inactive |
| GSTO2 | -0.59 | -0.69 | -0.61 | -0.49 | inactive |
| CCDC167 | 0.22 | -0.01 | 0.42 | 0.24 | inactive |
| PCDHB12 | 0.83 | 0.39 | 0.9 | 1.21 | inactive |
| OR4F3 | -1.72 | -1.55 | -2.03 | -1.57 | inactive |
| CMPK2 | -0.47 | -0.55 | -0.28 | -0.59 | inactive |
| ENTR1P1 | -0.26 | -0.37 | -0.51 | 0.1 | inactive |
| ADAD2 | 2.15 | 1.62 | 2.03 | 2.79 | active |
| PRLH | 1.96 | 2.34 | 1.89 | 1.65 | inactive |
| WFDC13 | 0.68 | 0.55 | 0.61 | 0.88 | inactive |
| TAF11L6 | 0 | 0.09 | -0.12 | 0.03 | inactive |
| CPNE1 | 0.44 | 0.39 | 0.11 | 0.82 | inactive |
| CDK3 | 0.26 | -0.43 | 0.11 | 1.09 | inactive |
| FGF12 | 1.71 | 1.75 | 1.6 | 1.78 | inactive |
| NUDT18 | -0.49 | -0.01 | -0.41 | -1.05 | inactive |
| DHFRP3 | 0.18 | 0.24 | 0.29 | 0.01 | inactive |
| MED28 | -4.36 | -4.42 | -4.41 | -4.25 | inactive |
| MMP27 | 0.2 | 0.02 | 0.25 | 0.32 | inactive |
| LRRTM4 | 1.15 | 1.18 | 0.84 | 1.43 | inactive |
| NLGN1 | -0.86 | -0.81 | -0.89 | -0.89 | inactive |
| SLC24A4 | 0.25 | 0.63 | 0.19 | -0.08 | inactive |
| CAMKV | -1.63 | -1.24 | -1.99 | -1.67 | inactive |
| DHFR2 | 0.02 | 0.04 | 0.5 | -0.47 | inactive |
